# Measured values published in PubChem BioAssay AID720542 (National Center for Advancing Translational Sciences (NCATS), 2013).
# The entries are a selection whose mix differs from that of the whole data set. Active and inactive are the calls of the source. Calls follow the shape of the dose curve; as a rule, active = well fitted inhibition curve with a large enough effect; inconclusive = small, poorly fitted or top-dose-only effect; inactive = no such curve, though single readings can be large or run the other way.
# Test system: Plasmodium falciparum AMA1 (3D7) - RON2 peptide interaction
# Assay: qHTS for Inhibitors of AMA1-RON; Towards Development of Antimalarial Drug Lead: Primary Screen;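 also: 0% = vehicle wells and -100% = peptide control; nearly all actives have a fitted effect of over 45% in size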
# Details: AlphaScreen AMA1-biotinylated RON2 peptide binding; at 58.2 µM (top of the series) unless noted
row,SMILES,"activity change, negative = inhibition"
1,O=C(NCC1(N2CCCCC2)CCCCC1)c1ccco1,inactive: 1.98%
2,Cn1c(=O)[nH]cc(N(CCCl)CCCl)c1=O,inactive: -14.3%
3,CN(C)c1ccc(C(=O)NCC2(N3CCCCC3)CCCCC2)cc1,inactive: -10.7%
4,CC(C)(C)n1nnnc1C(c1ccccc1)N1CCC(n2c(=O)[nH]c3ccccc32)CC1 (stereo unspecified),inactive: -12.7%
5,O=C1CCN(Cc2ccccc2)CC1,inactive: 2.94%
6,CCOc1ccc(C)cc1CN(CCCl)CCCl,inactive: -6.52%
7,O=C(NCC1(N2CCCCC2)CCCCC1)c1ccc(F)cc1,inactive: -2.39%
8,CCCCn1nnnc1C(c1cc2ccccc2o1)N1CCC(n2c(=O)[nH]c3ccccc32)CC1 (stereo unspecified),inactive: -24.6%
9,O=P1(N(CCCl)CCCl)SCCCS1,inactive: 1.6%
10,CCCCOc1ccc(C(=O)NCC2(N3CCOCC3)CCCCC2)cc1,inactive: -3.53%
11,COc1ccc(NC2CCN(CCc3ccccc3)CC2)c(OC)c1,inactive: -28.6%
12,CCOC(=O)N1CCC(Nc2ccc(F)cc2)CC1,inactive: -2.63%
13,O=c1[nH]c2ccccc2n1C1CCN(C(c2ccccc2)c2nnnn2C2CCCCC2)CC1 (stereo unspecified),inactive: -6.71%
14,COc1cc(C(=O)NCC2(N(C)C)CCCCC2)ccc1OC(F)F,inactive: -0.408%
15,CCOC(=O)N1CCC(Nc2cccc(C)c2)CC1,inactive: -7.53%
16,O=c1[nH]c2ccccc2n1C1CCN(C(c2cccc3ccccc23)c2nnnn2C2CCCC2)CC1 (stereo unspecified),inactive: -13.8%
17,COc1ccc(C(=O)NCC2(N3CCCCC3)CCCCC2)cc1,inactive: 1.93%
18,CCC(c1nnnn1C1CCCC1)N1CCC(n2c(=O)[nH]c3ccccc32)CC1 (stereo unspecified),inactive: -17.3%
19,COc1ccc(C(=O)NCC2(N3CCCCC3)CCCCC2)c(OC)c1OC,inactive: -18.8%
20,CC(C)(C)OC(=O)N1CCC(N(C(=O)c2ccccc2)c2ccc(F)cc2)CC1,inactive: 44.2%
21,O=C(NCC1(N2CCCCC2)CCCCC1)c1ccc(=O)[nH]c1,inactive: 14.4%
22,CCCCn1nnnc1C(c1cccs1)N1CCC(n2c(=O)[nH]c3ccccc32)CC1 (stereo unspecified),inactive: 7.11%
23,CCCCn1nnnc1C(CC)N1CCC(n2c(=O)[nH]c3ccccc32)CC1 (stereo unspecified),inactive: 3.47%

row,SMILES,"activity change, negative = inhibition"
1,O=C(NCC1(N2CCCCC2)CCCCC1)c1cccs1,inactive: 23.2%
2,CSc1ccccc1C(=O)NCC1(N2CCCCC2)CCCCC1,inactive: -2.44%
3,Cc1cccc(NC2(C#N)CCN(Cc3ccccc3)CC2)c1,inactive: 0.0794%
4,O=c1[nH]c2ccccc2n1C1CCN(C(c2ccccc2OC(F)(F)F)c2nnnn2C2CCCCC2)CC1 (stereo unspecified),inactive: -3.76%
5,O=C(NCC1(N2CCCCC2)CCCCC1)c1ccc(Cl)nc1,inactive: 4.89%
6,Cc1cc(C)cc(N(C(=O)c2ccccc2)C2CCN(C(=O)OC(C)(C)C)CC2)c1,inactive: -4.24%
7,O=C(NCC1(N2CCOCC2)CCCCC1)c1cc2ccccc2o1,inactive: 5.15%
8,O=C(OC1CN2CCC1CC2)C1c2ccccc2Oc2ccccc21 (stereo unspecified),inactive: -1%
9,O=c1[nH]c2ccccc2n1C1CCN(C(c2cc3ccccc3o2)c2nnnn2C2CCCCC2)CC1 (stereo unspecified),inactive: -0.296%
10,O=C(NCC1(N2CCCCC2)CCCCC1)c1ccc(Cl)s1,inactive: 10.6% [at 11.6 µM]
11,N#CC1(Nc2ccccc2)CCN(Cc2ccccc2)CC1,inactive: 11.1%
12,COc1ccc(Cl)cc1C(=O)NCC1(N2CCOCC2)CCCCC1,inactive: -12.3%
13,CCOC(=O)N1CCC(Nc2ccc(OC)cc2)CC1,inactive: -8.87%
14,CCCCn1nnnc1C(c1ccc(OC)cc1)N1CCC(n2c(=O)[nH]c3ccccc32)CC1 (stereo unspecified),inactive: -9.36%
15,CCCCn1nnnc1C(c1ccccc1OC(F)(F)F)N1CCC(n2c(=O)[nH]c3ccccc32)CC1 (stereo unspecified),inactive: -4.61%
16,COc1ccc(CN(CCCl)CCCl)cc1Cl,inactive: -23.5%
17,O=[N+]([O-])c1cc([N+](=O)[O-])c(OC2CCCCC2O)c([N+](=O)[O-])c1 (stereo unspecified),inactive: 0%
18,CN(C)c1cccc(C(=O)NCC2(N3CCCCC3)CCCCC2)c1,inactive: 7.64%
19,COc1cc(OC)c(C(=O)NCC2(N(C)C)CCCCC2)cc1OC,inactive: -3.45%
20,CCC(c1nnnn1C(C)(C)C)N1CCC(n2c(=O)[nH]c3ccccc32)CC1 (stereo unspecified),inactive: -5.75%
21,O=C(NCC1(N2CCOCC2)CCCCC1)c1cc(F)c(F)cc1Cl,inactive: -4.79%
22,CCN(CC)CCCNc1ccccc1[N+](=O)[O-].O=[N+]([O-])c1cc([N+](=O)[O-])c(O)c([N+](=O)[O-])c1,inactive: -9.62%
23,CCCCn1nnnc1C(c1ccnc2ccccc12)N1CCC(n2c(=O)[nH]c3ccccc32)CC1 (stereo unspecified),inactive: -6.72%
